# According to PMC3169616, “Unique Residues Involved in Activation of the Multitasking Protease/Chaperone HtrA from Chlamydia trachomatis” (PLoS ONE, 2011):
# The chains behind the UniProt entries cited, without tags or fusion partners. Residues count along the entry.
# UniProt P18584, 17-497 limits assumed: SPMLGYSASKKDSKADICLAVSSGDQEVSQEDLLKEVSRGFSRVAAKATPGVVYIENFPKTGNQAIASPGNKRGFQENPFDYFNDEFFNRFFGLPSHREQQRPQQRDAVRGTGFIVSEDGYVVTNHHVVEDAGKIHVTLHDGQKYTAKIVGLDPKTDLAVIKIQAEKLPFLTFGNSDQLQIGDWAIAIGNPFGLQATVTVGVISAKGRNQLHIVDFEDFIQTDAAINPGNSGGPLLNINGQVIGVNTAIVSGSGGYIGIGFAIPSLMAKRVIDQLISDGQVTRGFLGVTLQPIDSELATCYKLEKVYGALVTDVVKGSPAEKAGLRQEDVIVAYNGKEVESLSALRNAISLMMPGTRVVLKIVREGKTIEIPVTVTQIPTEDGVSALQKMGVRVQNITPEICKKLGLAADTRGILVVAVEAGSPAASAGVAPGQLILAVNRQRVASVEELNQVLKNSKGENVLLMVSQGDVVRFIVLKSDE
# Target: CtHtrA (Chlamydia trachomatis serovar D, UniProt P18584)
# Assay: Protease assay and kinetic analysis with pNA-labelled peptide substrates
# Assay type: biochemical
# Protocol: A series of peptide substrates were then designed based on the cleavage sites previously identified in ß-casein [3], PICS results, previously published substrates for E. coli DegP [22], and the REPLi library screening results. These peptides were assayed against CtHtrA and kinetic analysis was conducted (Table 2). The ‘best’ CtHtrA substrate was MFKLI-pNA (Kcat/Km = 1084.8). […] Generally, peptides with only 4 residues or less were not cleaved. FKLI-pNA was the only four residue peptide that was cleavable by CtHtrA. The preference for K at P3 implies a salt bridge may be involved in substrate coordination in the CtHtrA active site in the substrate pocket or subsite S3. In a direct comparison between MFRLI-pNA and MFQLI-pNA, R was clearly the most preferred. […] The Km for each of these, however, was at least an order of magnitude higher than the Km for MFKLI-pNa. The results from individually synthesised peptides (Table 2) and the peptides sourced from the REPLi library (Table 1) were consistent in that non-polar sequences are most preferred. MCA-IRRVSYSF-DNP, a peptide based on the optimal activity for human HtrA2 [23] was not a viable substrate for CtHtrA (data not shown). […] (Fig. S3).
# The purified recombinant protein was examined by Coomassie stained polyacrylamide gels and activity was checked using ß-casein cleavage assays prior to use in peptide assays. Briefly, this involved incubating 2 µg of the protease with 10 µg of ß-casein in 50 mM Tris pH 7.0, 20 mM MgCl2 for 2 h prior to examining the assays by SDS PAGE (ß-casein and protease only controls were always conducted). Protease assays using peptides were conducted using custom synthesised peptides (Mimotopes). The peptides were purified to 95% purity (or greater) and were typically resuspended in 50% isopropanol, although some peptides required 100% DMSO. Protease assays using pNA labelled peptides were conducted using the xMARK Microplate spectrophotometer (Bio-Rad) at 405 nm, incubated at 37°C, with a reading taken every 10 s for 30 min. The maximum slope over a minimum of 8 readings was used for the data analysis. Other peptides were labelled with 7-methoxycoumarin-4-acetic acid (MCA, fluorophore) and 2,4-dinitrophenyl (DNP, quencher). The protease assays using these peptides were conducted in black plates at 37°C using the POLARstar Optima (BMG Labtech). The assays were excited at 340 nm and emission was detected at 405 nm with a gain of 1000, the assays were monitored every 20 s or at the minimum cycle time for up to 40 min. […] The assay results shown for the fluorescent compounds have been normalised for the amount of fluorescent emission detected using a standard curve of known concentrations of the MCA fluorophore under the identical assay conditions. […]
# [1] = pNA peptide as substrate, absorbance 405 nm, 37°C
smiles,measurement,setting,value
CC[C@H](C)[C@H](NC(=O)[C@H](CC(C)C)NC(=O)[C@H](CCCCN)NC(=O)[C@@H](N)Cc1ccccc1)C(=O)Nc1ccc([N+](=O)[O-])cc1,Kcat/Km,[1],28.2 M⁻¹ s⁻¹
same,Km,[1],574 µM
same,Vmax,"pNA peptide as substrate, absorbance 405 nm, 37°C, reading every 10 s for 30 min","0.9723 mM sec^−1, µM CtHtrA^−1"
same,cleavage of pNA peptide by CtHtrA (in words),peptides of four residues or less,cleavable by CtHtrA

# Structures were worked out from names or drawings and are uncertain.
